Drawing on publication PMC7526519, this text covers Kd and fold higher affinity than SARS-CoV-2 RBD to the same ACE2 for five substances.

Holding throughout (test): SPR
In general terms: In SPR one partner is held on a chip, and binding of the other changes the refractive index at the surface.

In test [1] the target is SARS-CoV receptor binding domain (RBD), His-tagged (SARS-CoV) (UniProt P59594). The following applies: Fc fusion.
For test [2], the target named is SARS-CoV-2 receptor binding domain (RBD), His-tagged (SARS-CoV-2) (UniProt P0DTC2). The note with it: Fc fusion.
In test [3] the target is wild Bactrian camel ACE2 ectodomain fused with mouse Fc (wild Bactrian camel).

By Kd is commonly meant the free concentration of one partner at which half of the binding sites on the other are occupied at equilibrium, for simple one-to-one binding. Higher therefore signals a looser complex.

As to “Malayan pangolin ACE2 ectodomain fused with mouse Fc”, the figures for the Kd in test [1] and in test [2] were 227 nM and 66.8 nM, respectively.
“SARS-CoV receptor binding domain (RBD), His-tagged (from UniProt P59594 306-527) (domain or fragment)” yielded a fold higher affinity than SARS-CoV-2 RBD to the same ACE2 in test [3] of 4 fold.
As for “civet ACE2 ectodomain fused with mouse Fc (from UniProt Q56NL1 18-740)”, the Kd in test [1] turned out to be 121 nM.
Take fox ACE2 ectodomain fused with mouse Fc: the Kd in test [1] is 17.9 nM. This Kd lies about 6.8-fold lower than the previous one.
The substance “little brown bat ACE2 ectodomain fused with mouse Fc” gave a Kd in test [1] of 12400 nM.
